Paper PMC10420963, “Exploring Novel Drug Combinations: The Therapeutic Potential of Selanyl Derivatives for Leishmania Treatment” (Molecules, 2023)

Assays:
L. major promastigotes = experiment: Leishmanicidal activity against L. major promastigotes (MTT assay); format: cell-based, Leishmania major; conditions: ratio CC50 in macrophages / IC50 of L. major parasites
Method: (§1) Promastigotes. L. major (clone VI, MHOM/IL/80) and L. infantum (clone, BCN-150) parasites were cultured at 26 °C under continuous shaking in M199 1× medium (Sigma, St. Louis, MO, USA) supplemented with heat-inactivated fetal bovine serum (FBS), 25 mM HEPES (pH 7), 0.1 mM adenine, 0.0005% (w/v) haemin, […], 0.0005% (w/v) biotin, 100 IU/mL penicillin and […]. For each experiment, the culture medium was changed everyday in order to achieve parasite in exponential growth phase.
(§2) In order to determine the leishmanicidal activity of the compounds obtained in this study, promastigotes of L. major and L. infantum strains were seeded in 96-well plates (3 ×·10^6 parasite/mL) in exponential growth phase at increasing concentrations (1–500 μM) of the compounds and maintained at 26 °C. After 48 h of incubation, the IC50 was determined by MTT assay. The absorbance was measured in a MultiskanEX photometric plate reader for microplates at 540 nm. Data were obtained from three independent experiments performed in triplicate.

[1] = system: L. infantum promastigotes; experiment: Leishmanicidal activity against L. infantum promastigotes (MTT assay); format: cell-based, Leishmania infantum; conditions: ratio CC50 in macrophages / IC50 of L. infantum parasites
Method: as §1, §2

| Compound | SI L. major (L. major promastigotes) | SI L. infantum [1] |
| --- | --- | --- |
| NC[C@@H]1O[C@H](O[C@H]2[C@@H](O)[C@H](O[C@@H]3[C@@H](O)[C@H](N)C[C@H](N)[C@H]3O[C@H]3O[C@H](CO)[C@@H](O)[C@H](O)[C@H]3N)O[C@@H]2CO)[C@H](N)[C@@H](O)[C@@H]1O [PMN, paromomycin, reference compound] | 0.6 | 2.2 |
| CCCCCCCCCCCCCCCCOP(=O)([O-])OCC[N+](C)(C)C [MIL, miltefosine, reference compound] | 0.2 | 0.4 |
